Anti-infective test results gathered from many reports (values: NIAID ChemDB through PubChem).

All rows: cytotoxicity tests; cells: PBMC; measure: CC50

CCn: concentration that lowers growth or viability of the cells by n%. Conditions beyond the fields shown may differ between rows. An empty or dashed field is not shown.

compound	method	result
COc1ccc2nc(Cl)c(/C=C/C(=O)c3cc(C)sc3C)cc2c1	MTS	3.9 µM
O=C(NCCc1ccc2c(n1)NCCC2)N[C@@H]1C[C@H]1c1ccccc1		5.5 µM
OCCN(CCO)CCOc1nc(-c2cccs2)cc(-c2cccs2)n1		100 µM
Cc1ccc2nc(Cl)c(/C=C/C(=O)c3cc(C)oc3C)cc2c1	MTS	>100 µM
Cc1ccn(-c2cccc(CCNC(=O)Nc3cccc(F)c3)n2)n1		50 µM
Nc1nccc2c1ncn2[C@@H]1O[C@H](CO)[C@@H](O)[C@H]1O		9.99 µM
CN1CCN(CCSc2nnc(-c3ccc4ccccc4c3)c3ccccc23)CC1		100 µM
Cc1nnc2c3ccccc3c(N3CCc4cccnc4C3)nn12		3.19 µM
O=C(NCCCCc1ccc2c(n1)NCCC2)Nc1cccc(F)c1		50 µM
Cc1ccc2nc(Cl)c(/C=C/C(=O)c3cc4ccccc4o3)cc2c1	MTS	4.8 µM
Cc1ccc(NC(C#N)c2ccc(OCc3c(Cl)cccc3Cl)cc2)cc1	absorbance	14 µM
COc1ccccc1NC(=O)NCCc1ccc2c(n1)NCCC2		6 µM
COc1ccc2nc(Cl)c(/C=C/C(=O)c3ccc[nH]3)cc2c1	MTS	1.7 µM
CN(C)CCSc1cccc(-c2cc(-c3cccc(SCCN(C)C)c3)nc(SCCN(C)C)n2)c1		10 µM
Nc1nccc2c1ncn2[C@@H]1C=C(CO)[C@@H](O)[C@H]1O		8.29 µM
CC(=O)Nc1ccc2c(c1)CN(c1nn3c(C4CC4)nnc3c3ccccc13)CC2		0.25 µM
CN(C)CCSc1ccc(-c2cc(-c3ccc(SCCN(C)C)cc3)ncn2)cc1		100 µM
FC(F)(F)c1ccc2c(c1)CN(c1nn3c(C4CC4)nnc3c3ccccc13)CC2		5.06 µM
Cn1cnc2c(NC(=O)NCCc3ccc4c(n3)NCCC4)cccc21		50 µM
c1ccc2c(c1)CN(c1nn3c(C4CC4)nnc3c3ccccc13)C2		>100 µM
Cc1nc(Cl)ccc1NC(=O)NCCc1ccc2c(n1)NCCC2		5.7 µM
CN(C)CCSc1nccc(-c2nccs2)n1		100 µM
Cc1ccc(N2C(=O)CCC2(C#N)c2ccc(OCc3ccc(Cl)cc3Cl)cc2)cc1	absorbance	9.7 µM
CN1CCN(CCSc2nccc(-c3ccc(-c4ccnc(SCCN5CCN(C)CC5)n4)s3)n2)CC1		100 µM
Cc1ccc(N2C(=O)CCC2(C#N)c2ccccc2OCc2ccccc2)cc1	absorbance	22.8 µM
CN(C)CCNc1nc(-c2cc3ccccc3s2)c2ccccc2n1		100 µM
N#CC1(c2ccccc2)CCCN1C(=O)c1ccccc1Br	absorbance	>100 µM
CN1CCN(Cc2ccc(-c3cccc(-c4ccc(CN5CCN(C)CC5)cc4)n3)cc2)CC1		100 µM
COc1cc2c(cc1OC)CN(c1nn3c(C)nnc3c3ccccc13)CC2		1 µM

2 of the rows above, restated:

{"compound": "COc1ccc2nc(Cl)c(/C=C/C(=O)c3ccc[nH]3)cc2c1", "method": "MTS", "result": "1.7 µM"}
{"compound": "COc1ccc2nc(Cl)c(/C=C/C(=O)c3cc(C)sc3C)cc2c1", "method": "MTS", "result": "3.9 µM"}